Test results as given in article PMC12377726, “Structural insights into VRC01-class bnAb precursors with diverse light chains elicited in the IAVI G001 human vaccine trial” (Proceedings of the National Academy of Sciences of the …, 2025).

Molecular target: T1, eOD-GT8 (engineered outer domain germline-targeting version 8), monomer (HIV-1 gp120 engineered outer domain, …)
T1 chain: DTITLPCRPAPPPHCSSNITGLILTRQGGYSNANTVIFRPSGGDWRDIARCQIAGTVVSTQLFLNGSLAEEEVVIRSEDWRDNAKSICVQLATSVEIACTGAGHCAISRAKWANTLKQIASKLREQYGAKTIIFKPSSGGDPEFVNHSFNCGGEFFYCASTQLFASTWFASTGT
Experiment: SPR
Conditions: both partners purified

B1: G001_LD_V05_VRC01c_14 (antibody, V domains shown)
VH: not shown
VL: DIQMTQSPSSLSASVGDRVTITCQASQDINNYLNWYQQKPGKAPKLLIYDASNLETGVPSRFSGSGSGTDFTFTISSLQPEDIATYYCQQYEFFGGGTKVEIK
- Kd: 370 pM
